# Library screen at single concentrations

The filed quantity is “Percent Effect” (%). How 0% and 100% were set is not recorded. Most values in the screen are low, and negative values occur. The entries come from a sample that favours strong results. Two or more numbers in one place are separate tests of the same structure; such repeats can differ widely.

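Whole-cell growth test on Mycobacterium tuberculosis, read after 4 days in a medium based on cholesterol and the lipid DPPC; the read-out is not stated. Compounds at 50 µM. The record gives no direction; compounds that gave an IC50 in retests scored well above the rest, so higher reads as more growth inhibition. About 69,000 compounds were tested under these conditions; 0.54% (about 370) showed 50% or more at least once.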

{"smiles": "Cn1ncc(NCc2cccc(COC(C)(C)C)c2)c(Cl)c1=O", "percent effect": 37.68}
{"smiles": "COC(=O)c1cccc(C(=O)N(C)Cc2cccc(F)c2)c1", "percent effect": -10.12}
{"smiles": "Cc1cc(C)c(C#N)c(N2CCC(Cc3ccccc3)CC2)n1", "percent effect": 15.32}
{"smiles": "O=C(Cc1ccccc1Cl)Nc1cnn(C2CCOC2)c1", "stereo": "stereo not drawn", "percent effect": -2.142}
{"smiles": "CSC1=Nc2c(cnn2-c2ccccc2)C2=NCCCN12", "percent effect": 22.85}
{"smiles": "CNc1nc(C(=O)NCC2CCOc3ccccc3C2)cs1", "stereo": "stereo not drawn", "percent effect": -13.87}
{"smiles": "Cc1nc(COc2cccc(C#N)c2)no1", "percent effect": 11.08}
{"smiles": "OCC1(CC2CCCCO2)CCN(c2cnc3ccccc3n2)CC1", "stereo": "stereo not drawn", "percent effect": 66.38}
{"smiles": "Cc1noc(C(C)Nc2ccc3oc(C)nc3c2)n1", "stereo": "stereo not drawn", "percent effect": -18.26}
{"smiles": "Cc1nc(C)c2c(n1)CCN(Cc1ccco1)CC2", "percent effect": -10.33}
{"smiles": "CS(=O)(=O)NCC1CCCCN1Cc1ccccc1C#N", "stereo": "stereo not drawn", "percent effect": 27.29}
{"smiles": "c1cncc(-c2ccc3c(c2)CCC32CCNCC2)c1", "percent effect": 23.37}
{"smiles": "CCNc1ccnc(N2Cc3cnn(Cc4ccc(F)cc4)c3C2)n1", "percent effect": "50.87 and 25.86"}
{"smiles": "Cc1cc(C)cc(OCCN2CCn3c(C)nnc3C2)c1", "percent effect": -26.01}
{"smiles": "CCc1cnc(N)nc1NC(C)c1ccc(C)c(C)c1", "stereo": "stereo not drawn", "percent effect": 59.67}
{"smiles": "Cc1ccc(-c2nc(CCNCc3ccncc3)co2)cc1", "percent effect": "20.03 and 32.69"}
{"smiles": "Cc1cc(=O)[nH]c(-n2nc(C3CC3)cc2N)n1", "percent effect": 43.31}
{"smiles": "Cc1cnn(CC(=O)NCC2(O)CCCc3ccccc32)c1", "stereo": "stereo not drawn", "percent effect": 3.621}
{"smiles": "CC(C)C(C)N(C)Cc1nnc(-c2ccco2)o1", "stereo": "stereo not drawn", "percent effect": 25.11}
{"smiles": "Cc1cc(NC2CCC(=O)N(C)C2)n2nccc2n1", "stereo": "stereo not drawn", "percent effect": 73.77}
{"smiles": "COc1ccc(C[C@H]2CN(c3cc(OC)ncn3)CC[C@H]2OC)cc1.O=C(O)C(F)(F)F", "percent effect": 8.975}
{"smiles": "Cc1noc(CNc2ccc(C(=O)N3CCCC(C)C3)cc2C)n1", "stereo": "stereo not drawn", "percent effect": 7.479}
{"smiles": "c1cc(CN2CCOC3(CCCC3)C2)no1", "percent effect": 5.224}
{"smiles": "Cc1cc(C)n(CC(C)NC(=O)C2(c3ccccc3F)CC2)n1", "stereo": "stereo not drawn", "percent effect": -8.196}
{"smiles": "CCCc1cc(C(=O)N2CC(c3ccncc3)C2)ccn1", "percent effect": -10.64}
{"smiles": "CC(NC(=O)CNc1cc2c(cc1Cl)NC(=O)CO2)c1ccco1", "stereo": "stereo not drawn", "percent effect": -33.75}
{"smiles": "O=C(O)[C@@H]1CN(C(=O)CSCC2CC2)C[C@H]1c1ccccn1", "percent effect": "-16.19 and -9.267"}
{"smiles": "c1ccc(CCc2n[nH]c(C3CCC3)n2)cc1", "percent effect": 77.09}
{"smiles": "Cc1cc(C)n(CCCn2cncc2-c2ccc3c(c2)CC(C)N3C)n1.Cl", "stereo": "stereo not drawn", "percent effect": "23.79 and 28.5"}
{"smiles": "CCc1ccc(CN2CCOC(Cc3cccc(F)c3)C2)nc1", "stereo": "stereo not drawn", "percent effect": 52.3}
{"smiles": "Cc1cccc(OCCCN2CCC(N(C)Cc3noc(C)n3)C2)c1", "stereo": "stereo not drawn", "percent effect": -3.012}
{"smiles": "O=C(C1CC1)N1CCCC1c1nnc2n1CCCCC2", "stereo": "stereo not drawn", "percent effect": -25.48}
{"smiles": "Cc1cnn(CC2CN(c3cnc4ccccc4n3)CCO2)c1", "stereo": "stereo not drawn", "percent effect": 82.16}
{"smiles": "CC(C)C1CN(C(=O)c2ccccc2)CCS1", "stereo": "stereo not drawn", "percent effect": 22.68}
{"smiles": "O=C(O)C(F)(F)F.[H][C@]12C[C@@H](CN(C)C)N(C(C)=O)[C@@]1([H])CCN(C(=O)c1cccn1C)C2", "percent effect": -17.52}
{"smiles": "Cc1ccc(N2N=C(C(=O)NCC3CC3)S(=O)(=O)c3cccnc32)cc1", "percent effect": -13.82}
{"smiles": "CCn1ncc(-c2cc(C(F)(F)F)nc(N3CCC(N)CC3)n2)c1C", "percent effect": 22.77}

Data taken from ChEMBL document CHEMBL3988442, “University of Dundee, Small-Polar-MMV Screening Library” (2021).